Reference: PubChem BioAssay AID504761 (Drosophila RNAi Screening Center, 2011)

Screen: 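Genome-wide fly cell screen for genes dengue virus requires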 (primary screen)
Cells: D.Mel-2 cells from Drosophila
Reagent: long dsRNA against Drosophila genes
Challenge: infection with dengue virus type 2; dose and infection time not stated
Read-out: 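Cells stained for dengue envelope protein and imaged; percent of infected cells per well on duplicate plates, ranked by infection, with stained nuclei counted for cell number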
Direction: infection score: higher = more virus-infected cells; cell count: higher = more cells in the well
Rule for the call: 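Low infection ranks in the two replicates (chance level up to 0.065) followed by a retest with a 1.5-fold or larger significant decrease, p below 0.05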
Meaning of the calls: active = confirmed: knock-down lowers infection; inactive = not picked or not confirmed
The deposit covers about 22,000 reagents; this is a random part of those that have a named target and a result. Of all reagents, 116 (0.52%) got an active call. 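Calls depend on retest data that are not deposited; infection was ranked per plate without normalising between plates; the unit of the infection score is not given.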 Raw values are not corrected between plates. A plus sign joins genes that one reagent is predicted to hit. No sequences are given here. Not given: the amount of reagent, the time to read-out.

no.	target	DRSC id	infection score, replicate 1	infection score, replicate 2	cell count, replicate 1	cell count, replicate 2	Outcome
1	Pkc98E	DRSC16791	2.17	3.73	6069	6518	inactive
2	Pkc98E	DRSC28311	7.61	11	4339	2385	inactive
3	CG42496 + Ppcdc	DRSC03886	0.42	1.18	5913	3225	inactive
4	CG30412	DRSC04564	11.8	26.8	6378	5511	inactive
5	CG30412	DRSC25522	2.22	1.8	6726	6279	inactive
6	tadr	DRSC03177	14.9	26.5	6596	5083	inactive
7	Usp14	DRSC02853	19.1	6.18	6704	5940	inactive
8	Usp14	DRSC26748	9.11	17	6036	5787	inactive
9	COX7AL	DRSC15313	6.62	7.42	6949	6741	inactive
10	COX7AL	DRSC25198	1.35	1.83	7127	6435	inactive
11	Mvd	DRSC20096	2.39	1.49	6911	7380	inactive
12	mtt	DRSC05106	7.79	6.31	6036	5867	inactive
13	mtt	DRSC05107	2.71	0.65	6270	6002	inactive
14	mtt	DRSC06753	4.88	12.9	6532	6454	inactive
15	mtt	DRSC07235	7.51	4.44	6075	6821	inactive
16	Got2	DRSC00643	1.16	6.68	6196	5796	inactive

2 entries from above, ordered by “cell count, replicate 1”, highest first.
target	DRSC id	infection score, replicate 1	infection score, replicate 2	cell count, replicate 1	cell count, replicate 2	Outcome
mtt	DRSC06753	4.88	12.9	6532	6454	inactive
mtt	DRSC05107	2.71	0.65	6270	6002	inactive

Further entries follow:
no.	target	DRSC id	infection score, replicate 1	infection score, replicate 2	cell count, replicate 1	cell count, replicate 2	Outcome
17	CG15093	DRSC06522	2.48	14.2	6528	5901	inactive
18	CG15093	DRSC24576	5.3	4.14	5795	5840	inactive
19	mRpS9	DRSC12645	3.95	3.27	5371	4954	inactive
20	mRpS9	DRSC15456	28.9	22.4	5385	4368	inactive
21	CG11349	DRSC08179	1.38	1.32	6086	6235	inactive
22	CG11349	DRSC27563	10.3	7.16	6951	6943	inactive
23	ru	DRSC08258	0.7	1.55	6303	6127	inactive
24	ru	DRSC28529	8.41	7.63	6014	4968	inactive
